Pooled drug test results. Numbers come from NIAID ChemDB, via PubChem.

Common to all: whole-cell or culture tests; organism: Mycobacterium tuberculosis

A number after MIC or MFC names an inhibition level or a share of isolates.

compound,strain,endpoint,setting,tested at,changes,read by,result
Cc1cc(-c2cccs2)oc(=O)c1NC(=O)c1cnccn1,H37Rv,inhibition,-,6.25 µg/mL,-,BACTEC,33%
CO[C@H]1/C=C/O[C@@]2(C)Oc3c(C)c(O)c4c(O)c(cc(OCC(=O)N(C)C(C)C)c4c3C2=O)NC(=O)/C(C)=C\C=C\[C@H](C)[C@H](O)[C@@H](C)[C@@H](O)[C@@H](C)[C@H](OC(C)=O)[C@@H]1C,H37Rv,MIC,-,-,-,-,0.18 µg/mL
O=C(CCC(=O)c1ccccc1)NC[C@H]1CN(c2ccc(-n3cncn3)c(F)c2)C(=O)O1,10 clinical isolates sensitive,MIC,-,-,-,-,1–2 µg/mL
O=c1[nH]c2c(Cl)cccc2c(O)c1N=Nc1ccccc1,H37Rv,inhibition,-,6.25 µg/mL,-,resazurin,100%
Cc1ccc(C(=O)/C=C/c2ccccc2)cc1,H37Rv,MIC,21 d,-,-,MTT,32 µg/mL
COc1cc(/C=C/c2cccs2)oc(=O)c1,H37Rv,MIC bound,-,-,-,BACTEC,>12.5 µg/mL
CCN(C(=O)COc1cc2c(O)c3c(O)c(C)c4c(c13)C(=O)[C@@](C)(O/C=C/[C@H](OC)[C@@H](C)[C@@H](OC(C)=O)[C@H](C)[C@H](O)[C@H](C)[C@@H](O)[C@@H](C)/C=C/C=C(/C)C(=O)N2)O4)N1CCOCC1,H37Rv,MIC,-,-,-,-,0.37 µg/mL
CCOC(=O)c1ccc2nc(-c3ccc4c(c3)OCO4)[nH]c2c1,H37Rv,MIC,-,-,-,resazurin / fluorescence,>100 µM
COc1cc2c(cc1OC)[Se](Br)(Br)c1cc(OC)c(OC)cc1[Se]2,H37Rv,inhibition,-,12.5 µg/mL,-,BACTEC,-4%
CO[C@H]1/C=C/O[C@@]2(C)Oc3c(C)c(O)c4c(O)c(cc(OCC(=O)N5CCOCC5C)c4c3C2=O)NC(=O)/C(C)=C\C=C\[C@H](C)[C@H](O)[C@@H](C)[C@@H](O)[C@@H](C)[C@H](OC(C)=O)[C@@H]1C,H37Rv,MIC,-,-,-,-,0.09 µg/mL
CCOC(=O)c1ccc2c(c1)nc(-c1ccc(C(=O)O)cc1)n2CCN1CCCOC1,H37Rv,EC50,-,-,-,resazurin / fluorescence,>100 µM
Clc1ncccc1-n1cccc1/C=N/N=C/c1cccn1-c1cccnc1Cl,H37Rv,inhibition,-,6.25 µg/mL,-,BACTEC,48%
Cc1ccc2oc(=O)n(-c3ccc(F)cc3)c(=S)c2c1,My 331/88,MIC,21 d,-,-,-,8 µM
Cc1cccc(N=Nc2c(O)c3cccc([N+](=O)[O-])c3[nH]c2=O)c1,H37Rv,MIC,-,-,-,resazurin,<6.25 µg/mL
CO[C@H]1/C=C/O[C@@]2(C)Oc3c(C)c(O)c4c(O)c(c5c(c4c3C2=O)NC2(CCN(CC(C)C)CC2)N=5)=NC(=O)/C(C)=C\C=C\[C@H](C)[C@H](O)[C@@H](C)[C@@H](O)[C@@H](C)[C@H](OC(C)=O)[C@@H]1C,H37Rv,MBC,-,-,-,-,0.062 µg/mL
Cc1c(OCC(=O)N/N=C/c2ccc(N(CCCl)CCCl)cc2)ccc2c(=O)c3ccccc3oc12,H37Rv,MIC,-,-,-,BACTEC,≥12.5 µg/mL
CCOC(=O)c1ccc2c(c1)nc(-c1ccc(OC)cc1)n2CCN1CCCOC1,H37Rv,EC50,-,-,-,resazurin / fluorescence,99.79 µM
CSc1ccc(C(=O)CCC(=O)NC[C@H]2CN(c3ccc(N4CCOCC4)c(F)c3)C(=O)O2)cc1,ATCC 27294,MIC,-,-,-,-,0.5 µg/mL
COc1ccc(C(=O)/C=C/c2ccccc2Cl)c(F)c1,H37Rv,MIC,7 d,-,-,MTT,32 µg/mL
Cc1ccc2oc(=O)n(-c3cccc(Cl)c3)c(=S)c2c1,My 331/88,MIC,14 d,-,-,-,0.5 µM
O=C1c2ccccc2C(=O)c2c(NCCN3CCOCC3)ccc(NCCN3CCOCC3)c21,H37Rv,MIC bound,-,-,-,BACTEC,>12.5 µg/mL
CC(=O)Oc1ccccc1C(=O)Nc1ncc([N+](=O)[O-])s1,LAM spoligotype 20,MIC,-,-,-,visual reading,20 µg/mL
O=C(/C=C/c1c(F)cccc1Cl)c1ccc(F)cc1,H37Rv,MIC,14 d,-,-,resazurin,64 µg/mL
CN[C@@H]1[C@@H](O)[C@@H](O[C@@H]2[C@@H](O)[C@H](O[C@H]3O[C@H](CN)CC[C@H]3N)[C@@H](N)C[C@H]2N)OC[C@]1(C)O,H37Rv,Mean MIC,-,-,-,-,3.5 µg/mL
CCOC(=O)c1ccc2c(c1)nc(-c1ccccc1)n2CCN1CCCOC1,H37Rv,EC90,-,-,-,resazurin / fluorescence,>100 µM
CCOC(=O)CCc1c(C)c2c(OC(C)=O)cc(OC(C)=O)cc2oc1=O,H37Rv,MIC bound,-,-,-,BACTEC,>12.5 µg/mL
COc1ccc2oc(=O)n(-c3cccc(Cl)c3)c(=S)c2c1,My 331/88,MIC,14 d,-,-,-,16 µM
N#C/C(=C\c1ccc(F)c(F)c1)n1nnc2ccccc21,ATCC 27294,MIC90,-,-,-,-,>100 µM
O=C(/C=C/c1ccc(F)cc1)c1ccc(O)cc1,H37Rv,MIC,21 d,-,-,resazurin,32 µg/mL
O=C(O)c1ccccc1-c1c2ccc(=O)c(Cl)c-2oc2c(Cl)c(O)ccc12,H37Rv,MIC bound,-,-,-,BACTEC,>12.5 µg/mL
COc1ccc(N=Nc2c(O)c3c(Cl)ccc(Cl)c3[nH]c2=O)c(C)c1,H37Rv,MIC,-,-,-,resazurin,>6.25 µg/mL
N#C/C(=C\c1ccc(C(F)(F)F)cc1C(F)(F)F)n1nnc2ccccc21,ATCC 27294,MIC50,-,-,-,-,9.3 µM
O=C(CC1(O)C(=O)Nc2ccccc21)c1cccc([N+](=O)[O-])c1,H37Rv,inhibition,-,6.25 µg/mL,-,resazurin,-8%
CC(=O)O[C@H]1C[C@@]2(C)[C@@H](C[C@@H](O)[C@H]3[C@@]4(C)CC[C@@H](O)[C@@H](C)[C@@H]4CC[C@@]32C)/C1=C(\CCC=C(C)C)C(=O)O,H37Ra,Median MIC,-,-,-,-,3 µg/mL
CC(=O)c1ccc(N=Nc2c(O)c3ccc(Cl)cc3[nH]c2=O)cc1,H37Rv,inhibition,-,6.25 µg/mL,-,resazurin,6%
Cc1nc2ccc(N(C)C)cc2c2c1Cc1c(C)nc3ccc(N(C)C)cc3c1O2,H37Rv,MIC bound,-,-,-,BACTEC,>12.5 µg/mL
COc1cc2c3c(c1OC)-c1cc4c(cc1CC3N(C=O)CC2)OCO4,H37RvRr,MIC,-,-,-,resazurin,>50 µg/mL
CC(=O)Nc1ccc(C(=O)CCC(=O)NC[C@H]2CN(c3ccc(-n4cncn4)c(F)c3)C(=O)O2)cc1,10 clinical isolates sensitive,MIC,-,-,-,-,2–4 µg/mL
Cc1ccc2oc(=O)n(-c3cccc(F)c3)c(=S)c2c1,My 331/88,MIC,21 d,-,-,-,8 µM
Cc1cc(=O)c2c(=O)[nH][nH]c2[nH]1,H37Rv,MIC,-,-,-,BACTEC,≥12.5 µg/mL
CCOC(=O)c1ccc2c(c1)nc(-c1ccc(Br)cc1)n2CCN1CCCC1=O,H37Rv,MIC,-,-,-,resazurin / fluorescence,>100 µM
COc1ccc(C(=O)/C=C/c2ccc(F)cc2)cc1F,H37Rv,MIC,7 d,-,-,resazurin,128 µg/mL
COc1nc2ccc(Br)cc2cc1[C@@H](c1ccccc1)[C@@](O)(CCN(C)C)c1cccc2ccccc12,H37Rv,fold resistance,-,-,-,resazurin,8
O=c1oc2ccc(Br)cc2c(=S)n1-c1ccccc1,My 331/88,MIC,14 d,-,-,-,0.5 µM
CCOC(=O)c1ccc2c(c1)nc(-c1ccc(Cl)cc1)n2CCN1CCCC1=O,H37Rv,EC90,-,-,-,resazurin / fluorescence,>100 µM
C[N+](C)(C)[N-]C(=N)c1ccccc1,H37Rv,MIC bound,-,-,-,BACTEC,>12.5 µg/mL
NC(=O)c1cnccn1,Isolate 98-29,MIC,-,-,-,-,900 µg/mL
N[C@@H]1CONC1=O,H37Ra,Median MIC,-,-,-,-,19 µg/mL
O=C(O)C(=O)O.OC(CNCCc1ccccc1)CN1c2ccccc2Sc2ccccc21,STB-9102,MIC,-,-,-,resazurin,4 µg/mL
COc1ccc(C(=O)/C=C/c2ccccc2Cl)cc1,H37Rv,MIC,-,-,-,MTT,32 µg/mL
CN1c2ccccc2CCC1CCc1ccc2c(c1)OCO2,MT7,MIC,-,-,-,-,169 µg/mL
O=C(O)CNC(CO)C(=O)O,H37Rv,inhibition,-,12.5 µg/mL,-,BACTEC,21%
Fc1ccc2oc(=S)n(-c3cccc(Cl)c3)c(=S)c2c1,My 331/88,MIC,21 d,-,-,-,4 µM
O=C(CCC(=O)c1ccc2ccccc2c1)NC[C@H]1CN(c2ccc(-n3cncn3)c(F)c2)C(=O)O1,10 clinical isolates resistant,MIC,-,-,-,-,2–8 µg/mL
C=C1CC/C=C(\C)CC[C@@H]2[C@@H]1CC2(C)C,H37Rv,MIC,-,-,-,BACTEC,64 µg/mL
CCOC(=O)c1ccc2nc(-c3ccc(Cl)cc3)[nH]c2c1,H37Rv,EC50,-,-,-,resazurin / fluorescence,>100 µM
COc1ccc(/C=C(\C#N)n2nnc3ccccc32)cc1,ATCC 27294,MIC90,-,-,-,-,>100 µM
CCCc1c(-n2[nH]c(=O)n(-c3ccccc3)c2=O)c(=O)n(C)c(=O)n1C,H37Rv,MIC bound,-,-,-,resazurin,>6.25 µg/mL
Cc1ccc(-n2c(=S)oc3ccc(Br)cc3c2=S)cc1,My 331/88,MIC,14 d,-,-,-,0.5 µM
COc1cc(OC)c2cc([N+](=O)[O-])c3ccc(=O)oc3c2c1,H37RvIr,MIC,-,-,-,resazurin,12.5 µg/mL
Cc1ccc(N=Nc2c(O)c3ccc(Cl)c(Cl)c3[nH]c2=O)cc1,H37Rv,MIC,-,-,-,resazurin,<6.25 µg/mL
COc1cc(C)c2sc3ccccc3c(=O)c2c1NCCN(C)C.O=C(O)/C=C/C(=O)O,H37Rv,inhibition,-,12.5 µg/mL,-,BACTEC,99%
O=C1c2ccccc2C(=O)c2cc(C[P+](c3ccccc3)(c3ccccc3)c3ccccc3)ccc21,FJ05060,MIC,-,-,Clinically sensitive strain,resazurin,1 µg/mL
O=C(/C=C/c1ccccc1)c1ccccc1,H37Rv,MIC,21 d,-,-,MTT,32 µg/mL
N#C/C(=C\c1ccccc1F)n1nnc2ccccc21,ATCC 27294,MIC50,-,-,-,-,47.2 µM
CC[C@H]1OC(=O)[C@H](C)[C@@H](O[C@H]2C[C@@](C)(OC)[C@@H](O)[C@H](C)O2)[C@H](C)[C@@H](O[C@@H]2O[C@H](C)C[C@H](N(C)C)[C@H]2O)[C@](C)(OC)C[C@@H](C)C(=O)[C@H](C)[C@@H](O)[C@]1(C)O,91196,MIC,-,-,-,-,>4 µg/mL
O=C(/C=C/c1ccc(F)cc1Cl)c1ccc(F)cc1,H37Rv,MIC,14 d,-,-,MTT,32 µg/mL
CO[C@H]1/C=C/O[C@@]2(C)Oc3c(C)c(O)c4c(O)c(cc(OCC(=O)NC(C)O)c4c3C2=O)NC(=O)/C(C)=C\C=C\[C@H](C)[C@H](O)[C@@H](C)[C@@H](O)[C@@H](C)[C@H](OC(C)=O)[C@@H]1C,H37Rv,MIC,-,-,-,-,0.09 µg/mL
CC[C@H]1OC(=O)[C@H](C)[C@@H](O[C@H]2C[C@@](C)(OC)[C@@H](O)[C@H](C)O2)[C@H](C)[C@@H](O[C@@H]2O[C@H](C)C[C@H](N(C)C)[C@H]2O)[C@](C)(OC)C[C@@H](C)C(=O)[C@H](C)[C@@H](O)[C@]1(C)O,H37Rv,Median MIC,-,-,-,-,32 µg/mL
O=S(=O)(O)c1cccc2c(N=Nc3ccc(N=Nc4ccc(Nc5ccccc5)c5c(S(=O)(=O)O)cccc45)c4ccccc34)cccc12,H37Rv,MIC,-,-,-,BACTEC,≥128 µg/mL
NCCCN1c2ccccc2Sc2ccccc21,MDR-699,MIC,-,-,-,resazurin,4 µg/mL
O=c1oc2nc(-c3ccccc3)[nH]c(=O)c2c2c1CCCC2,H37Rv,MIC,-,-,-,BACTEC,≥12.5 µg/mL
COc1ccc(CCC2CCc3ccccc3N2C)cc1OC,MT3,MIC,-,-,-,-,>100 µg/mL
Cc1cc(S(=O)(=O)NC2=NCCCN2)c(S)cc1Cl,H37Rv,MIC bound,-,-,-,BACTEC,>12.5 µg/mL
Cc1cccc(N=Nc2c(O)c3ccc(Cl)c(Cl)c3[nH]c2=O)c1,H37Rv,inhibition,-,6.25 µg/mL,-,resazurin,62%
CC(=O)Nn1c(Cc2ccc(Cl)cc2)nn(C)c1=O,H37Rv,MIC bound,-,-,-,BACTEC,>12.5 µg/mL
CN[C@@H]1[C@H](O[C@H]2[C@H](O[C@H]3[C@H](O)[C@@H](O)[C@H](N=C(N)N)[C@@H](O)[C@@H]3N=C(N)N)O[C@@H](C)[C@]2(O)C=O)O[C@@H](CO)[C@H](O)[C@H]1O,H37Rv,MIC,-,-,-,-,<2 µg/mL

The first 4 rows once more:

compound	strain	endpoint	setting	tested at	changes	read by	result
Cc1cc(-c2cccs2)oc(=O)c1NC(=O)c1cnccn1	H37Rv	inhibition	-	6.25 µg/mL	-	BACTEC	33%
CO[C@H]1/C=C/O[C@@]2(C)Oc3c(C)c(O)c4c(O)c(cc(OCC(=O)N(C)C(C)C)c4c3C2=O)NC(=O)/C(C)=C\C=C\[C@H](C)[C@H](O)[C@@H](C)[C@@H](O)[C@@H](C)[C@H](OC(C)=O)[C@@H]1C	H37Rv	MIC	-	-	-	-	0.18 µg/mL
O=C(CCC(=O)c1ccccc1)NC[C@H]1CN(c2ccc(-n3cncn3)c(F)c2)C(=O)O1	10 clinical isolates sensitive	MIC	-	-	-	-	1–2 µg/mL
O=c1[nH]c2c(Cl)cccc2c(O)c1N=Nc1ccccc1	H37Rv	inhibition	-	6.25 µg/mL	-	resazurin	100%

Fold resistance has wild type as its base. Lines come from different laboratories, so protocols vary. MIC bound: limit read from a one-dose screen. Two numbers with a dash give a range or band. Blank or dashed fields: not listed here. Percent inhibition refers to the dose given; in toxicity tests it is the harm to the cells. ECn is the concentration giving n% inhibition of infection, replication or growth.